Anti-infective test results gathered from many reports (values: NIAID ChemDB through PubChem).

Shared fields: tests on isolated targets; species: Hepatitis C virus; protein: Nonstructural protein 5B; measure: IC50

An empty or dashed field is not shown.

structure	strain or isolate	read by	value
CN(C)CCNc1cc(C(=O)Nc2ccc3cn[nH]c3c2)c(F)cc1F	-	-	>10 µg/mL
COc1nc(Nc2ccc3[nH]ncc3c2)nc(N2CCC(O)CC2)n1	-	-	>10 µg/mL
CC(C)COc1cc(C(=O)O)nn1CC(=O)N[C@H]1CCCC[C@@H]1OCC1CCCCC1	-	-	>50 µM
N[C@@H](CS)C(=O)N[C@@H](Cc1ccccc1)C(=O)N1CCC[C@H]1C(=O)N[C@@H](Cc1c[nH]c2ccccc12)C(=O)NCC(=O)N[C@@H](CS)C(=O)O	-	-	>150 µM
C[C@@]1(O)[C@H](O)[C@@H](COP(=O)(O)OP(=O)(O)OP(=O)(O)O)O[C@@]1(C#N)n1ccc(=O)[nH]c1=O	-	-	27 µM
Nc1nc2cnc(N3CCC(Oc4cc(F)ccc4Br)CC3)nc2s1	GT1b	nucleotide incorporation / radiometric	>80 µM
COCCNc1nc(Nc2ccc3[nH]ncc3c2)nc(OC)n1	-	-	0.1–1 µg/mL
COc1c(-c2ccc3cc(NS(C)(=O)=O)ccc3c2)cc(-n2ccc(=O)[nH]c2=O)cc1C(C)(C)C	GT 4a#1	nucleotide incorporation	0.9 µM
COc1nc(NCCc2c[nH]c3ccccc23)nc(Nc2ccc3cn[nH]c3c2)n1	-	-	1–10 µg/mL
Cc1ccc(-c2ccc(C=C3SC(=S)N(c4ccc(C(=O)O)cc4)C3=O)o2)nc1	-	-	≤1 µM
CC(C)(C)c1cccc(CCC2(C3CCCC3)CC(=O)CC(=O)O2)c1	-	-	1–10 µM
Cc1ccc(F)cc1COc1cc(C(=O)O)nn1CC(=O)N[C@H]1CCCC[C@@H]1OCc1ccccc1	-	-	3.1 µM
O=C(Nc1ccc2cn[nH]c2c1)c1cc(NCCO)c(F)cc1F	-	-	10 µg/mL
COc1cc(O)c2c(c1)oc(=O)c1c3cc(O)c(O)cc3oc21	NS5B	-	36.1 µM
O=C(Nc1ccsc1-c1nc(C(=O)O)c(O)c(=O)[nH]1)OCc1c(Cl)cccc1Cl	-	nucleotide incorporation	0.7 µM
O=C(O)CCN1C(=O)C(=Cc2ccc(-c3cc4ccccc4o3)o2)SC1=S	-	-	≤1 µM
O=C1CC(=O)OC(CCc2ccc(OC3CCC3)c(F)c2)(C2CCCC2)C1	-	-	1–10 µM
COc1ccc(-c2ccc(C=C3SC(=S)N(c4ccc(C(=O)O)cc4)C3=O)o2)cc1OC	-	-	≤1 µM
COc1nc(NCCO)nc(Nc2ccc3[nH]ncc3c2)n1	-	-	1–10 µg/mL
Nc1nc(N)c2ncn([C@@H]3CO[C@H](COP(=O)(O)OP(=O)(O)OP(=O)(O)O)O3)c2n1	-	-	10 µM
Cc1cc(SC2=C(O)CC(CCc3ccc(O)cc3)(C3CCCC3)OC2=O)c(C(C)(C)C)cc1C(N)=O	-	-	1–10 µM
CNC(=O)N1C[C@H]2COC[C@@H](C1)CN(C(=O)[C@]13C[C@H]1Cc1cc(OC)ccc1-c1c(C4CCCCC4)c4ccc(C(=O)NS(=O)(=O)C(C)C)cc4n1C3)C2	1b	nucleotide incorporation	0.003 µM
CNC(=O)c1c(-c2ccc(F)cc2)oc2cc(N(C)S(C)(=O)=O)c(OC(F)F)cc12	-	-	≤0.5 µM
CCOC(=O)C1=CN(N2CCN(c3nc(Nc4ccc5cn[nH]c5c4)nc(OC)n3)CC2)C(SC)N=C1	-	-	>10 µg/mL
CC1OC(=O)CC(=O)C1c1ccc(CCC2(C3CCCC3)CC(=O)CC(=O)O2)cc1	-	-	<1 µM
CC(C)CNc1cc(C(=O)Nc2ccc3cn[nH]c3c2)c(F)cc1F	-	-	>10 µg/mL
O=C1C=C(O)CC(CCc2ccc(OCc3ccc(C(F)(F)F)nc3)cc2)(C2CCCC2)O1	-	-	10–50 µM
C[C@@]1(O)[C@H](O)[C@@H](COP(=O)([O-])OP(=O)([O-])OP(=O)([O-])O)O[C@H]1n1cnc2c(N)nc(N)nc21	WT gt 1b	nucleotide incorporation	3.6 µM
CCOC1=CC(=O)OC(CCC#Cc2cccc(O)c2)(C2CCCC2)C1	-	-	>50 µM
O=C(Nc1ccc2[nH]ncc2c1)c1cc(NCCCn2ccnc2)c(F)cc1F	-	-	1–10 µg/mL
COc1nc(NCCCN2CCOCC2)nc(Nc2ccc3cn[nH]c3c2)n1	-	-	0.1–1 µg/mL
O=C(O)CCN1C(=O)C(=Cc2ccc(-c3ccco3)o2)SC1=S	-	-	≤1 µM
CCOC(=O)C1CCN(c2nc(Nc3ccc4[nH]ncc4c3)nc(OC)n2)CC1	-	-	>10 µg/mL
COc1cc2c(=O)c(C(=O)c3ccc(C)cc3)cn(Cc3ccc(Cl)cc3)c2cc1OC	WILD TYPE	scintillation proximity / radiometric	1.15 µM
Cc1cc(-c2ccc(C=C3SC(=S)N(c4ccc(C(=O)O)cc4)C3=O)o2)oc1C	-	-	≤1 µM
CCOC(=O)c1cnc(SC2=C(O)CC(CCc3cc(Cl)c(OC)cc3OC)(C3CCCC3)OC2=O)[nH]1	-	-	<1 µM
O=C(O)C(=O)/C=C(\O)c1cccc(NS(=O)(=O)c2cc(Cl)c(Cl)cc2Cl)c1	-	-	0.3 µM
COc1ccc(CCC2(C3CCCC3)CC(O)=C(Sc3nc4nc[nH]c4c(=O)[nH]3)C(=O)O2)cc1	-	-	<1 µM
Cc1ccc(C(=O)O)c(Nc2ccc(N3CCOCC3)cc2)n1	-	-	0.01–0.1 µg/mL
OCc1nnc(-c2ccc(N3CCC(Oc4ccccc4C(F)(F)F)CC3)nn2)o1	GT1b	nucleotide incorporation / radiometric	30.1 µM
O=C(Nc1ccc2[nH]ncc2c1)c1cc(NCCN2CCCC2)c(F)cc1F	-	-	1–10 µg/mL

3 of the rows above, restated:

structure | strain or isolate | read by | value
O=C1C=C(O)CC(CCc2ccc(OCc3ccc(C(F)(F)F)nc3)cc2)(C2CCCC2)O1 | - | - | 10–50 µM
CNC(=O)c1c(-c2ccc(F)cc2)oc2cc(N(C)S(C)(=O)=O)c(OC(F)F)cc12 | - | - | ≤0.5 µM
O=C(Nc1ccc2[nH]ncc2c1)c1cc(NCCCn2ccnc2)c(F)cc1F | - | - | 1–10 µg/mL

Two numbers with a dash give a range or band. ICn: concentration for n% inhibition. Lines come from different laboratories, so protocols vary.